{"source": "paper PMC9269068", "about": "“Ultrapotent antibodies against diverse and highly transmissible SARS-CoV-2 variants” (2021)", "key": {"[1]": {"molecular_target": "full-length S B.1.258.24 (N439K/D614G) (SARS-CoV-2) (UniProt P0DTC2)"}, "[2]": {"molecular_target": "full-length S B.1.258.24 (N439K/D614G) (SARS-CoV-2) (UniProt P0DTC2)", "remark": "listed apart in the source"}, "[3]": {"molecular_target": "full-length S B.1.177.31 (K417N/E484K/N501Y/D614G) (SARS-CoV-2) (UniProt P0DTC2)"}}}
{"substance": "A19-61.1", "values": [{"measurement": "fold reduction in binding (MFI) against D614G", "setting": "[1]", "result": "< 2", "unit": "fold"}]}
{"substance": "B1-182.1", "values": [{"measurement": "fold reduction in binding (MFI) against D614G", "setting": "[1]", "result": "< 2", "unit": "fold"}, {"measurement": "pseudovirus neutralisation IC50; […]", "setting": "[2]", "result": "< 3.2", "unit": "ng/mL"}, {"measurement": "pseudovirus neutralisation IC50; […]", "setting": "[3]", "result": "< 3.2", "unit": "ng/mL"}]}
